Laboratory results taken from paper PMC6445162, “Effects of NS2B-NS3 protease and furin inhibition on West Nile and Dengue virus replication” (Journal of Enzyme Inhibition and Medicinal Chemistry, 2017).

Chains of the proteins cited; added tags and fusions are not shown. Residues count along the entry.
UniProt P06935, 1424-1463 limits assumed: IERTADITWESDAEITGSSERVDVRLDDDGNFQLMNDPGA
UniProt P06935, 1502-1679 limits assumed: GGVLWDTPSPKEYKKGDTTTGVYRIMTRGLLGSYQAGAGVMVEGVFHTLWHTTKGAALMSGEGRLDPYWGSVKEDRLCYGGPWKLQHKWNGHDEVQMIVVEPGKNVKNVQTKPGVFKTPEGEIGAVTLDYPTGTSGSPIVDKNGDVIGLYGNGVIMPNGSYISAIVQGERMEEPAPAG
UniProt P14340, 1398-1437 limits assumed: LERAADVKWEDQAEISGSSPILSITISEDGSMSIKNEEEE
UniProt P14340, 1476-1653 limits assumed: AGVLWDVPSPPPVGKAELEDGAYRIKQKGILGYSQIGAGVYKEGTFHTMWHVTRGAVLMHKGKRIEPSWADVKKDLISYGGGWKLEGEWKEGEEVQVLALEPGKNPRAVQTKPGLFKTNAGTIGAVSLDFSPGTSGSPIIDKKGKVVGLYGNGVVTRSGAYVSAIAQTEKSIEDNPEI

Experiments:
[1] = target: T1, WNV NS2B-NS3 protease (West Nile virus, UniProt P06935); test: Enzyme kinetic inhibition of WNV NS2B-NS3 protease construct (Dixon plot); format: biochemical; settings: read-out: Ki (μM) (WNV), covalently linked WNV NS2B-NS3 construct, substrate Phac-Leu-Lys-Lys-Arg-AMC, Dixon plots, average of at least two measurements, tested form: TFA
Procedure: (§1) All measurements were performed at room temperature in black flat-bottom 96-well plates (Nunc, Langenselbold, Germany) using microplate readers (Tecan Safire^2, λex = 380 nm and λem = 460 nm, Tecan Group Ltd., Männedorf, Switzerland or Fluoroskan Ascent type 374, λex = 355 nm and λem = 460 nm; Thermo Fisher Scientific, Vantaa, Finland). The assays with the flavivirus protease constructs were performed with 125 μl buffer (100 mM Tris pH 8.5 containing 20% glycerol, 0.01% Triton X-100, and the inhibitor), 50 μl substrate solution, and were started by addition of 25 μl enzyme solution (total assay volume 200 μl).
For measurements with the covalently linked WNV NS2B-NS3 protease construct (∼4 nM in assay) the substrate Phac-Leu-Lys-Lys-Arg-AMC ×3 TFA (50 µM, 100 µM and 200 µM in assay, KM = 47.5 µM) was used, as described previously.
(§2) The DENV serotype 2 NS2B-NS3 protease construct was prepared from an identical clone as described by D’Arcy et al.[26] The purification of the protease was carried out in a buffer with high ion-strength and low pH value, in the absence of glycerol (20 mM Bis-Tris, 500 mM NaCl, pH 6.3), in order to prevent autolysis of the enzyme. Purification was performed by using a 5 ml HisTrapTM FF column (GE Healthcare) and subsequently, a HiLoad 16/60 SuperdexTM 75 column (GE Healthcare). The assays with the DENV-2 NS2B-NS3^pr° (∼39 nM in well) were performed with the substrate Phac-Lys-Arg-Arg-AMC ×3 TFA (125 µM, 62.5 µM and 31.25 µM in assay, KM = 60 µM). All Ki values were obtained from Dixon plots[27] and are the average of at least two measurements. Due to the weak potency of most compounds against the DENV-2 NS2B-NS3 protease construct, only the percentage of inhibition at a constant inhibitor concentration of 100 µM in the presence of 125 µM substrate was determined.

[2] = target: DENV serotype 2 NS2B-NS3 protease (Dengue virus type 2, UniProt P14340); test: Enzyme kinetic inhibition of DENV-2 NS2B-NS3 protease construct; format: biochemical, Dengue virus serotype 2; settings: tested form: TFA; for % Inhib. (DENV): 100 μM inhibitor in the presence of 125 μM substrate
Procedure: as §1, §2

[3] = system: WNV strain New York 99; test: WNV plaque assay (virus yield from infected Huh-7 cells, titration on VeroE6); format: cell-based, West Nile virus; settings: tested form: TFA
Procedure: An analogous plaque assay was employed for WNV-infected cells. Huh-7 cells were seeded into 96-well plates and incubated overnight. Cells were infected for 1 h with the WNV strain New York 99 at a MOI of 0.2 PFU/cell. Different concentrations of the compounds, dissolved in culture medium, were added to the cells together with the virus. After 1 h incubation at 37 °C, inocula were removed and cells were covered with fresh medium containing the inhibitors. Production of virus progeny was determined 48 h postinfection by titration of culture supernatants using a plaque assay on VeroE6 cells, Ribavirin was included as a reference compound. The influence of inhibitors on cell viability was determined by using CellTiter-Glo® and CytoTox 96® assays (Promega GmbH, Mannheim, Germany) according to the instructions of the manufacturer.

[4] = system: DENV (strain 16681); test: DENV plaque assay (virus yield from infected Huh-7 cells, titration on VeroE6); format: cell-based, Dengue virus serotype 2; settings: tested form: TFA
Procedure: Inhibition of DENV propagation was determined by plaque assay as described recently[20]^,[28] with slight modifications. Huh-7 cells were seeded into 96-well plates and incubated overnight. The next day, cells were infected with DENV (strain 16681) at a multiplicity of infection (MOI) of 1 PFU/cell. Given concentrations of the compounds, dissolved in culture medium, were added to the cells together with the virus. After 2 h incubation at 37 °C, inocula were removed and cells were covered with fresh medium containing given concentrations of the inhibitors. Production of virus progeny was determined 48 h postinfection by titration of cell supernatants using a plaque assay on VeroE6 cells. Ribavirin was included as a reference compound.

[5] = target: T1, WNV NS2B-NS3 protease; settings: read-out: Ki (WNV NS2B-NS3 protease); reference compounds available from previous studies; tested form: TFA; cited from earlier work
[6] = 3.1 µM inhibitor, Huh-7 cells, 48 h postinfection
[7] = 50 µM inhibitor, Huh-7 cells, 48 h postinfection
[8] = identical concentrations (e.g. 25 µM)

## N=C(N)N[C@H]1CC[C@H](CNC(=O)[C@H](Cc2cccc(CN)c2)NC(=O)[C@H](CCCCN)NC(=O)Cc2ccccc2)CC1
[1]
  Ki: 134 µM

## N=C(N)N[C@H]1CC[C@H](CNC(=O)[C@H](Cc2cccc(CN)c2)NC(=O)[C@H](Cc2cccc(CN)c2)NC(=O)Cc2ccccc2)CC1
[1]
  Ki: 44.2 µM
[2]
  % Inhib. (DENV): 5.5%

## CC(=O)NC(C(=O)N[C@@H](CCCCN)C(=O)N[C@@H](CCCCN)C(=O)N[C@@H](CCCNC(=N)N)C(N)=O)c1ccccc1 (some centres unmarked)
[1]; listed as 40
  Ki: 4 µM

## N=C(N)N[C@H]1CC[C@H](CNC(=O)[C@H](Cc2ccc(CN)cc2)NC(=O)[C@H](Cc2ccc(CN)cc2)NC(=O)Cc2ccccc2)CC1
[1]
  Ki: 13.6 µM
[2]
  % Inhib. (DENV): 10.8%

## N=C(N)NCc1ccc(C[C@H](NC(=O)Cc2ccccc2)C(=O)N[C@@H](Cc2ccc(CNC(=N)N)cc2)C(=O)NC[C@H]2CC[C@H](NC(=N)N)CC2)cc1
[1]
  Ki: 85.3 µM
[2]
  % Inhib. (DENV): 17.1%

## N=C(N)NCc1ccc(C[C@H](NC(=O)[C@H](CCCCN)NC(=O)Cc2ccccc2)C(=O)NC[C@H]2CC[C@H](NC(=N)N)CC2)cc1
[1]
  Ki: 75.6 µM

## CC(C)(C)[C@H](NC(=O)[C@H](CCCNC(=N)N)NC(=O)Cc1ccc(CNC(=N)N)cc1)C(=O)N[C@@H](CCCNC(=N)N)C(=O)NCc1ccc(C(=N)N)cc1
[1]
  Ki: 6.45 µM
[2]; read-out: Ki (μM) (DENV), DENV-2 NS2B-NS3 construct, substrate Phac-Lys-Arg-Arg-AMC, Dixon plots
  Ki: 83.1 µM
[3]; [6]
  decrease of WNV virus titers: 75%
  reduction of WNV virus titers: less than 10 fold
[3]; [7]
  reduction of the number of infectious WNV particles: four orders of magnitude
[3]; [8]
  antiviral effect against WNV compared with ribavirin: significantly stronger antiviral effect
[4]; [6]
  decrease of DENV-2 virus titers: 10 fold
[4]; [7]
  reduction of DENV-2 virus titers: more than 1000 fold
[4]; [8]
  antiviral effect against DENV-2 compared with ribavirin: significantly stronger antiviral effect

## N=C(N)N[C@H]1CC[C@H](CNC(=O)[C@H](CCCCN)NC(=O)[C@H](Cc2cccc(CN)c2)NC(=O)Cc2ccccc2)CC1
[1]
  Ki: 22.2 µM

## N=C(N)NCc1cccc(C[C@H](NC(=O)Cc2ccccc2)C(=O)N[C@@H](CCCCN)C(=O)NC[C@H]2CC[C@H](NC(=N)N)CC2)c1
[1]
  Ki: 29.6 µM
[2]
  % Inhib. (DENV): 31.1%

## N=C(N)N[C@H]1CC[C@H](CNC(=O)[C@H](CCCCN)NC(=O)[C@H](CCCCN)NC(=O)Cc2ccccc2)CC1
[5]
  Ki: 1.2 µM

## N=C(N)NCc1cccc(C[C@H](NC(=O)Cc2ccccc2)C(=O)N[C@@H](Cc2cccc(CNC(=N)N)c2)C(=O)NC[C@H]2CC[C@H](NC(=N)N)CC2)c1
[1]
  Ki: 21.6 µM

## N=C(N)N[C@H]1CC[C@H](CNC(=O)[C@H](Cc2ccc(CN)cc2)NC(=O)[C@H](CCCCN)NC(=O)Cc2ccccc2)CC1
[1]
  Ki: 28.9 µM

## N=C(N)NCCC[C@H](NC(=O)[C@H](CCCCN)NC(=O)[C@H](CCCCN)NC(=O)C(N)c1ccccc1)C(N)=O (some centres unmarked)
[1]; listed as 39
  Ki: 4 µM and 3.6 µM

## N=C(N)Nc1ccc(C[C@H](NC(=O)[C@H](CCCCN)NC(=O)Cc2ccccc2)C(=O)NC[C@H]2CC[C@H](NC(=N)N)CC2)cc1
[1]
  Ki: 18.2 µM
[2]
  % Inhib. (DENV): 14.7%

## N=C(N)Nc1ccc(C[C@H](NC(=O)Cc2ccccc2)C(=O)N[C@@H](CCCCN)C(=O)NC[C@H]2CC[C@H](NC(=N)N)CC2)cc1
[1]
  Ki: 29.8 µM

## N=C(N)NCc1cccc(C[C@H](NC(=O)[C@H](CCCCN)NC(=O)Cc2ccccc2)C(=O)NC[C@H]2CC[C@H](NC(=N)N)CC2)c1
[1]
  Ki: 99.4 µM

Values joined by “and” are separate entries in the source; they are usually repeats but may differ in a detail not shown here. Equal values may be shown once. Read-outs that look alike come from different tables or passages of the source.
